Anti-infective test results gathered from many reports (values: NIAID ChemDB through PubChem).

Shared fields: tests in culture; agent: Rhinovirus; measure: EC50

ECn: concentration that inhibits the pathogen or its effect by n%.

structure,read by,strain or isolate,cells,value
CN(C)c1nc(C(F)(F)F)nc2c1ncn2Cc1ccc(Cl)cc1Cl,plaque count,Serotype 29,M-HELA,>8 µM
CSc1nsc(-c2ccc(OS(=O)(=O)c3ccc(C)cc3)cc2)c1C#N,cytopathic effect,Serotype 86 (group A),HELA-OHIO,>25 µM
CSc1nsc(-c2ccc(OCCCOc3ccc([N+](=O)[O-])cc3)cc2)c1C#N,cytopathic effect,Serotype 39 (group B),HELA-OHIO,0.5 µM
CCOC(=O)/C=C/[C@H](C[C@@H]1CCNC1=O)NC(=O)[C@@H](CC(=O)[C@@H](NC(=O)c1cc(C)on1)C(C)C)Cc1ccc(F)cc1,cytopathic effect / visual reading,Isolate 23,OHIO HELA-I,<0.01 µg/mL
CSc1nsc(-c2ccc(OCc3ccccc3)cc2)c1C#N,cytopathic effect,Serotype 85 (group B),HELA-OHIO,1 µM
CC(C)Oc1ccc(Cn2cnc3c(N(C)C)nc(C(F)(F)F)nc32)cc1,plaque count,Serotype 1B,M-HELA,1 µM
CSc1nsc(-c2ccc(OCCCCOc3ccccc3)cc2)c1C#N,cytopathic effect,Serotype 63 (group B),HELA-OHIO,>20 µM
CN(C)c1nc(C(F)(F)F)nc2c1ncn2Cc1ccc([N+](=O)[O-])cc1,plaque count,Serotype 1A,M-HELA,>4 µM
Fc1cccc(Cn2cnc3c(Nc4cccc(F)c4)nc(C(F)(F)F)nc32)c1,plaque count,Serotype 2,M-HELA,2.2 µM
CSc1nsc(-c2ccc(OCCCc3ccccc3)cc2)c1C#N,cytopathic effect,Serotype 39 (group B),HELA-OHIO,1.8 µM
CN(C)c1ccc(Cn2cnc3c(N(C)C)nc(C(F)(F)F)nc32)cc1,plaque count,Serotype 31,M-HELA,>8 µM
Fc1cccc(Nc2nc(C(F)(F)F)nc3c2ncn3Cc2ccccc2F)c1,plaque count,Serotype 4,M-HELA,>20 µM
Cc1cc(CCCCCOc2c(Cl)cc(C3=NCCO3)cc2Cl)on1,plaque count,TYPE 50,HeLa,0.032 µg/mL
CN(C)c1nc(C(F)(F)F)nc2c1ncn2Cc1ccccc1Cl,plaque count,Serotype 21,M-HELA,>8 µM
CCOC(=O)c1ccc(OCCCOc2ccc(-c3snc(SC)c3C#N)cc2)cc1,cytopathic effect,Serotype 41 (group B),HELA-OHIO,>2 µM
CCOC(=O)c1ccc(OCCC2CCN(c3ccc(C)nn3)CC2)cc1,neutral red,121564 (ICAM-1 receptor group 86),KB,0.081 µM
CSc1nsc(-c2ccc(OCCCOc3ccccc3)cc2)c1C#N,cytopathic effect,Serotype 39 (group B),HELA-OHIO,3.75 µM
CSc1nsc(-c2ccc(OC(C)(C)C)cc2)c1C#N,cytopathic effect,Serotype 42 (group A),HELA-OHIO,>40 µM
CSc1nsc(-c2ccc(OCCOc3ccccc3)cc2)c1C#N,cytopathic effect,Serotype 41 (group B),HELA-OHIO,>20 µM
Cc1cc(Cl)ccc1Cn1cnc2c(N(C)C)nc(C(F)(F)F)nc21,plaque count,Serotype 29,M-HELA,>8 µM
CSc1nsc(-c2ccc(OCCOc3ccc(C#N)cc3)cc2)c1C#N,cytopathic effect,Serotype 41 (group B),HELA-OHIO,>2 µM
Cc1cc(Cn2cnc3c(N(C)C)nc(C(F)(F)F)nc32)ccc1Cl,plaque count,Serotype 3,M-HELA,>8 µM

Repeating the final 2 entries:

structure,read by,strain or isolate,cells,value
CSc1nsc(-c2ccc(OCCOc3ccc(C#N)cc3)cc2)c1C#N,cytopathic effect,Serotype 41 (group B),HELA-OHIO,>2 µM
Cc1cc(Cn2cnc3c(N(C)C)nc(C(F)(F)F)nc32)ccc1Cl,plaque count,Serotype 3,M-HELA,>8 µM

Rows are shuffled and stem from different studies.